Measured values: patent US20050282239A1, “Cell-permeable enzyme activation reporter that can be loaded in a high throughput and gentle manner” (priority 2003, published 2005)

Columns and labels:
Assay in all cases: CACE single-cell analysis: loading and release of cargo
HT1080/PTEN cells = format: cell-based, human; conditions: 1 μM extracellular
HT1080 cells = format: cell-based, human
RBL cells = format: cell-based, rat; conditions: all cells

## GRPRAATFAEGRKKRRQRRR [F-PKB-PLL-TAT, fluorescein-PKB substrate-photolabile linker-TAT(49-57)]
HT1080/PTEN cells; UVA 10 s, all cells, n=6, migration time of F-PKB standard
  peaks on electrophoretic trace: a single peak

## GRPRAATFAEGCRKKRRQRRR [F-PKB-C-SS-TAT, F-PKB-C conjugated to TAT(49-57) via a disulfide bond]
HT1080 cells; 215 nM extracellular, n=6
  cells with only non-phosphorylated and phosphorylated F-PKB-C peaks: 67%
HT1080 cells; 1 μM extracellular, n=15
  cells with only two peaks (non-phosphorylated and phosphorylated F-PKB-C): 15%
HT1080 cells; 1 μM extracellular, n=85
  electrophoretic traces with multiple peaks other than non-phosphorylated and phosphorylated F-PKB-C: 85%
HT1080/PTEN cells; DTT added before lysis and to electrophoretic buffer
  peaks on electrophoretic trace: a single peak
HT1080/PTEN cells; n=19
  cells with a single peak (F-PKB-C): 30%
  cells with multiple peaks: 70%
RBL cells; 750 nM extracellular, n=3
  peaks on electrophoretic trace: no additional peaks
RBL cells; 3 μM extracellular, n=4
  peaks on electrophoretic trace: multitude of peaks

Ends that are not written are not given here.
